A mixed list of measured activities; the numbers were collected in NIAID ChemDB.

Common to all: target-level tests; species: HIV-1; target: RNase H

Rows are shuffled and stem from different studies. ICn is the concentration giving n% inhibition. Blank or dashed fields: not listed here.

{"smiles": "C#CCOc1ccc(OCC#C)c2c1C(=O)c1ccccc1C2=O", "endpoint": "IC50", "result": ">88 µM"}
{"smiles": "CCOC(=O)C(=O)CC(=O)/C=C/c1cc(-c2ccccc2)cn1Cc1ccc(F)cc1", "mutations": "Y501A", "method": "substrate cleavage / fluorescence", "endpoint": "IC50", "result": ">100 µM"}
{"smiles": "Nc1nc2c(ncn2[C@@H]2O[C@H](COCO[C@@H]3[C@H](O)[C@@H](CO)O[C@H]3n3cnc4c(=O)[nH]c(N)nc43)[C@@H](O)[C@H]2O)c(=O)[nH]1", "method": "RNase H", "endpoint": "IC50", "result": "5 µM"}
{"smiles": "Nc1sc2c(c1C(=O)Nc1ccccn1)CCCCC2", "method": "RNase H / fluorescence", "endpoint": "IC50", "result": "20.1 µM"}
{"smiles": "O=C1OCc2cc(=O)c(O)c(O)c(O)c21", "method": "RNase H / fluorescence", "endpoint": "IC50", "result": "1.2 µM"}
{"smiles": "CCOC(=O)c1c(NC(=O)c2ccc(Cl)cc2)sc2c1CCCCC2", "method": "RNase H / fluorescence", "endpoint": "IC50", "result": "72.58 µM"}
{"smiles": "CCCC(C)Nc1nc(OCCc2ccc([N+](=O)[O-])cc2)c2ncn([C@@H]3O[C@H](COP(O)(=S)O[C@H]4C[C@H](n5cnc6c(N)ncnc65)O[C@@H]4CO)[C@@H](O)[C@H]3O)c2n1", "method": "RNase H", "endpoint": "IC50", "result": "3 µM"}
{"smiles": "CCOC(=O)C(=O)CC(=O)/C=C/c1cccn1Cc1ccccc1Cl", "method": "RNase H / fluorescence", "endpoint": "IC50", "result": "8.7 µM"}
{"smiles": "O=C(Nc1sc2c(c1C(=O)Nc1ccccn1)CCCCC2)c1ccccc1F", "method": "RNase H / fluorescence", "endpoint": "IC50", "result": "21.89 µM"}
{"smiles": "O=C1c2ccccc2C(=O)c2c(OCC#CCN3CCOCC3)ccc(O)c21", "endpoint": "IC50", "result": ">100 µM"}
{"smiles": "COC(=O)c1c(C)cc(=O)c(O)c(O)c1O", "method": "RNase H / fluorescence", "endpoint": "IC50", "result": "1.5 µM"}
{"smiles": "O=C(CCc1ccccc1)Nc1sc2c(c1C(=O)Nc1ccccn1)CCCCC2", "method": "RNase H / fluorescence", "endpoint": "IC50", "result": "14.6 µM"}
{"smiles": "C#CCOc1ccc(O)c2c1C(=O)c1ccccc1C2=O", "endpoint": "IC50", "result": ">100 µM"}
{"smiles": "O=c1oc(-c2ccccc2)nc2sc3c(c12)CCCCC3", "method": "RNase H / fluorescence", "endpoint": "IC50", "result": "20.7 µM"}
{"smiles": "CCOC(=O)c1c(C)cc(=O)c(O)c(O)c1O", "method": "RNase H / fluorescence", "endpoint": "IC50", "result": "1.1 µM"}
{"smiles": "Nc1sc2c(c1C(=O)Nc1ccccn1)CCCCC2", "method": "RNase H / fluorescence", "endpoint": "IC50", "result": "20.1 µM"}
{"smiles": "CCOC(=O)C(=O)CC(=O)/C=C/c1cccn1Cc1ccc(C)cc1C", "mutations": "R557A", "method": "substrate cleavage / fluorescence", "endpoint": "IC50", "result": "20 µM"}
{"smiles": "O=C(Oc1ccc(O)c2c1C(=O)c1ccccc1C2=O)c1ccccc1", "endpoint": "IC50", "result": ">100 µM"}
{"smiles": "COc1ccc(C(=O)Nc2sc3c(c2C(=O)Nc2ccccn2)CCCCC3)cc1OC", "mutations": "p66wt/p52C280A HIV-1 RT", "method": "RNase H / fluorescence", "endpoint": "IC50", "result": ">50 µM"}
{"smiles": "CC(=O)COc1ccc(O)c2c1C(=O)c1ccccc1C2=O", "endpoint": "IC50", "result": ">100 µM"}
{"smiles": "O=C(Nc1sc2c(c1C(=O)Nc1ccccn1)CCCCC2)c1ccc(F)cc1", "method": "RNase H / fluorescence", "endpoint": "IC50", "result": "4.72 µM"}
{"smiles": "COc1cccc(-c2nc3sc4c(c3c(=O)o2)CCCCC4)c1", "method": "RNase H / fluorescence", "endpoint": "IC50", "result": "21.9 µM"}
{"smiles": "CCCCN(CCCC)c1nc(OCCc2ccc([N+](=O)[O-])cc2)c2ncn([C@@H]3O[C@H](COP(O)(=S)O[C@H]4[C@@H](F)[C@H](n5cnc6c(N)ncnc65)O[C@@H]4CO)[C@@H](O)[C@H]3O)c2n1", "method": "RNase H", "endpoint": "IC50", "result": "15 µM"}
{"smiles": "COc1cccc(Cn2cccc2/C=C/C(=O)CC(=O)C(=O)O)c1", "mutations": "R557A", "method": "substrate cleavage / fluorescence", "endpoint": "IC50", "result": ">100 µM"}
{"smiles": "CCCCN(CCCC)c1nc(OCCc2ccc([N+](=O)[O-])cc2)c2ncn([C@@H]3O[C@H](COP(O)(O)=S)[C@@H](O)[C@H]3O)c2n1", "method": "RNase H", "endpoint": "Ki", "result": "10 µM"}
{"smiles": "Cc1ccc(Cl)cc1Nc1nc(C(F)(F)F)ccc1C(=O)NN1CCN(c2cccc(Cl)c2)CC1", "mutations": "Y181C", "method": "RNase H / absorbance", "endpoint": "IC50", "result": "55.4 µM"}
{"smiles": "O=c1oc(-c2cccc(O)c2)nc2sc3c(c12)CCCCC3", "method": "RNase H / fluorescence", "endpoint": "IC50", "result": "33.9 µM"}
{"smiles": "Nc1nc2c(ncn2[C@@H]2O[C@H](COP(=O)(O)O[C@H]3[C@@H](O)[C@H](n4cnc5c(=O)[nH]c(N)nc54)O[C@@H]3CO)[C@@H](O)[C@H]2O)c(=O)[nH]1", "method": "RNase H", "endpoint": "IC50", "result": "15 µM"}
{"smiles": "CCOC(=O)c1c(NC(=O)c2ccccc2F)sc2c1CCCCC2", "method": "RNase H / fluorescence", "endpoint": "IC50", "result": "25.2 µM"}
{"smiles": "O=C(/C=C/c1cccn1Cc1ccc(F)cc1)CC(=O)C(=O)O", "mutations": "R557A", "method": "substrate cleavage / fluorescence", "endpoint": "IC50", "result": "45 µM"}
{"smiles": "Nc1nc(OCCc2ccc([N+](=O)[O-])cc2)c2ncn([C@@H]3O[C@H](COP(O)(=S)O[C@H]4[C@@H](F)[C@H](n5cnc6c(N)ncnc65)O[C@@H]4CO)[C@@H](O)[C@H]3O)c2n1", "method": "RNase H", "endpoint": "IC50", "result": "40 µM"}

Again, the opening 2 rows:

smiles | mutations | method | endpoint | result
C#CCOc1ccc(OCC#C)c2c1C(=O)c1ccccc1C2=O |  |  | IC50 | >88 µM
CCOC(=O)C(=O)CC(=O)/C=C/c1cc(-c2ccccc2)cn1Cc1ccc(F)cc1 | Y501A | substrate cleavage / fluorescence | IC50 | >100 µM